Measured values from several laboratories, pooled; numbers as filed in NIAID ChemDB.

Shared fields: tests in culture; species: Herpes simplex virus 2; cells: VERO; read-out: EC50

ECn is the concentration giving n% inhibition of infection, replication or growth.

structure,strain or isolate,method,value
CC#Cc1cn([C@@H]2O[C@H](COP(=O)(O)Oc3ccccc3Cl)[C@@H](O)[C@@H]2O)c(=O)[nH]c1=O,SC16,plaque count,>100 µM
Nc1nc2c(ncn2C/C=C\CO)c(=O)[nH]1,72,plaque count,3.2 µM
CC12CC3C4(CC[C@H]5C(C)(C)CCC[C@]5(C)[C@]34C1)CC2=O,-,-,20 µg/mL
Nc1ccn(C[C@@H](CO)OCP(=O)(O)O)c(=O)n1,G,plaque count,13–25 µg/mL
COc1ccc(/C=N/N=C(/N)NO)c(OC)c1OC.Cc1ccc(S(=O)(=O)O)cc1,G,plaque count,>50 µM
COC(=O)CC1(O)C(O[Si](C)(C)C(C)(C)C)[C@H](n2ccc(=O)[nH]c2=O)O[C@@H]1CO[Si](C)(C)C(C)(C)C,-,plaque count,>3.2 µM
CC#Cc1cn([C@@H]2O[C@H](COP(=O)(N[C@H](C(=O)OC)C(C)C)Oc3ccccc3)[C@@H](O)[C@@H]2O)c(=O)[nH]c1=O,SC16,plaque count,>100 µM
Nc1ncnc2c1ncn2N1C[C@H](CO)[C@H]1CO,-,cytopathic effect,34.9 µg/mL
CC(=O)OCCOCn1c(-c2ccccc2)c(Br)c(Br)c1-c1ccccc1,-,plaque count,>23 µM
CC#Cc1cn([C@@H]2O[C@H](COP(=O)(O)OCC(Cl)(Cl)Cl)[C@@H](O)[C@@H]2O)c(=O)[nH]c1=O,SC16,plaque count,>100 µM
CCOC(=O)c1c(Cl)c(-c2ccccc2)n(COCCO)c1C,-,plaque count,100 µM
CC(C)NS(=O)(=O)OC[C@H]1O[C@@H](n2ccc(=O)[nH]c2=O)C2OC(C)(C)OC21,-,virus yield,25 µg/mL
Cc1ccc(S(=O)(=O)O)cc1.N/C(=N/N=C/c1ccc2c(c1)OCO2)NO,G,plaque count,>50 µM
Cc1cn([C@@H]2O[C@H](CO[Si](C)(C)C(C)(C)C)C3(O[C@H]3C(N)=O)[C@H]2O[Si](C)(C)C(C)(C)C)c(=O)[nH]c1=O,-,plaque count,>2.7 µM
Nc1nc2c(ncn2CC[C@H](O)CO)c(=O)[nH]1,72,plaque count,32 µM
CC#Cc1cn([C@@H]2O[C@H](COP(=O)(O)Oc3ccc(OC)cc3)[C@@H](O)[C@@H]2O)c(=O)[nH]c1=O,SC16,plaque count,>100 µM
Nc1nc2c(ncn2CCCCO)c(=O)[nH]1,72,plaque count,14 µM
CC12CC[C@]3(C1)[C@@H](CC2=O)[C@H](O)C[C@H]1C(C)(C)CCC[C@@]13C,-,-,30 µg/mL
Nc1nc2c(ncn2CCCC(CO)CO)c(=O)[nH]1,91075,plaque count,7 µM
CC#Cc1cn([C@@H]2O[C@H](COP(=O)(OCC(Cl)(Cl)Cl)Oc3ccccc3)[C@@H](O)[C@@H]2O)c(=O)[nH]c1=O,SC16,plaque count,>100 µM
CC(C)(C)[Si](C)(C)OC[C@H]1O[C@@H](n2ccc(=O)[nH]c2=O)[C@H](O[Si](C)(C)C(C)(C)C)/C1=C/CO,-,plaque count,>5 µM
CC(=O)O[C@H]1C[C@H]2C(C)(C)CCC[C@]2(C)[C@@]23CCC(C)(C2)[C@H](OC(C)=O)C[C@H]13,-,-,10 µg/mL
CCCCC(C)(C)[C@H](O)/C=C/[C@H]1C=CC(=O)[C@@H]1CCCCCCC(=O)O,H210,hybridisation,4.5 µg/mL
COc1ccc(OC)c(/C=N/N=C(/N)NO)c1.Cc1ccc(S(=O)(=O)O)cc1,G,plaque count,50 µM
CC(=O)OCCOCn1c(-c2ccccc2)c(-c2ccccc2)c([N+](=O)[O-])c1-c1ccccc1,-,plaque count,>300 µM
Nc1nc2c(ncn2COC(CO)CO)c(=O)[nH]1,-,plaque count,1.67 µM
Nc1nc2c(ncn2COC2COP(=O)(O)OC2)c(=O)[nH]1,-,cytopathic effect,50 µM
CC(C1=NNC(=Nc2ccccc2)SC1)N1C(=O)c2ccccc2C1=O,SAV,cytopathic effect,30 µg/mL
Cc1cn([C@@H]2O[C@H](CO[Si](C)(C)C(C)(C)C)C3(O[C@H]3C(=O)NO)[C@H]2O[Si](C)(C)C(C)(C)C)c(=O)[nH]c1=O,-,plaque count,>3 µM
CC#Cc1cn([C@@H]2O[C@H](COP(=O)(O)Oc3ccc(F)cc3)[C@@H](O)[C@@H]2O)c(=O)[nH]c1=O,SC16,plaque count,>100 µM
C=CCN=C1NN=C(C(C)N2C(=O)c3ccccc3C2=O)CS1,SAV,cytopathic effect,>333 µg/mL
CC1(C)OC2C(O1)[C@@H](COS(=O)(=O)NC(=O)OC(COCc1ccccc1)OCc1ccccc1)O[C@H]2n1ccc(=O)[nH]c1=O,-,virus yield,54 µg/mL
Nc1nc2c(ncn2CCC(O)CO)c(=O)[nH]1,72,plaque count,12 µM
CC12CC[C@]3(C1)[C@@H](CC[C@H]1C(C)(C)CCC[C@@]13C)CC2=O,-,-,14 µg/mL
O=[N+]([O-])c1c(-c2ccccc2)c(-c2ccccc2)n(COCCO)c1-c1ccccc1,-,plaque count,40 µM

For reference, 5 entries again:

structure	strain or isolate	method	value
CC#Cc1cn([C@@H]2O[C@H](COP(=O)(OCC(Cl)(Cl)Cl)Oc3ccccc3)[C@@H](O)[C@@H]2O)c(=O)[nH]c1=O	SC16	plaque count	>100 µM
C=CCN=C1NN=C(C(C)N2C(=O)c3ccccc3C2=O)CS1	SAV	cytopathic effect	>333 µg/mL
CC1(C)OC2C(O1)[C@@H](COS(=O)(=O)NC(=O)OC(COCc1ccccc1)OCc1ccccc1)O[C@H]2n1ccc(=O)[nH]c1=O	-	virus yield	54 µg/mL
CC#Cc1cn([C@@H]2O[C@H](COP(=O)(O)Oc3ccc(F)cc3)[C@@H](O)[C@@H]2O)c(=O)[nH]c1=O	SC16	plaque count	>100 µM
Cc1cn([C@@H]2O[C@H](CO[Si](C)(C)C(C)(C)C)C3(O[C@H]3C(N)=O)[C@H]2O[Si](C)(C)C(C)(C)C)c(=O)[nH]c1=O	-	plaque count	>2.7 µM

Blank or dashed fields: not listed here. Neighbouring rows are from separate reports. a–b is a range or a potency band.